# Laboratory results reported in publication PMC7808427.
# Target: his6-AsiR (UniProt A0A0F6AZV0)
# Assay: EMSA
# Details: 10 mM Mg2+; recombinant protein; residues 1-293; protein details: 6xHis; probe letters rebuilt from the primers and the genome
sequence,measurement,value
AATGTGTTTTAGCAACTCGGATGTATGCATTGTTCCCATCCAGAATAACCAACTTTATTTTTGTGCGACGTAGCCGCACCCCGTGATGTCGCCGGGAAGGCCCGGTAAAAGAAGCAAAAAGGTCAAATGCATAGCAGCGCTCAGACATTATGGACATTGTGACGTATAACGCAGCCTCCCACTGAGATTCGCCTTACACGTTTACATCAATTTTTACAAATGCCTAAGATTTTTCCTAATTCGACGCAACTCTACTCGTCAGCTTCGTGACATACAACGGAGCGGGACGGCGATTTTAGAAAATATGTGATGCAGATCACATATTTTAACGGAATACTTACGATAAAACCATCAGCATGGCTTTTACTTTGTTTAATTAATAACCTAATGTTCACTTTTTCTATTCCACACTGCTGAATAGGGGTACGTCAACACCAAATTCTTTTTTGTTTCTCTCTGTTAAAATAACGCCAGGATAATAGATAACA (double strand) [flhDC promoter fragment],binding result,binds
